The values that follow come from PubChem BioAssay AID624416 (The Scripps Research Institute Molecular Screening Center, 2012).

This is a selection; strong and weak results do not stand in their true shares. Some salts and complexes are drawn in separate pieces, as the source files them; their charges need not balance. Active and inactive are the calls of the source. No stated cut-off is given here; in the data, active means inhibition above about 8.5%; inactive means the rest.

In this test the test system is HIV-1 gp120 / PG9 antibody interaction. Nature of the test: binders of HIV-1 gp120 antibody PG9, primary screen, biochemical, TR-FRET (AID 624416). The settings on record: TR-FRET gp120-PG9 antibody binding; at 6.7 µM; active compounds read high.
Regarding `COc1ccc(OP(C)(=O)Nc2cccc(Br)c2)cc1` (stereo not drawn), the inhibition (as a rule, the drop in the measured response relative to a control, in per cent) is inactive: -2.17%.

For the compound `CP(=O)(Nc1ccccc1)Oc1ccc(F)cc1` (stereo not drawn), the inhibition was inactive: -1.12%.

Turning to `CCCCCOc1ccc(NP(C)(=O)Oc2ccc(Cl)cc2Cl)cc1` (stereo not drawn), the inhibition is inactive: -1.43%.

On to `O=[N+]([O-])c1cc([N+](=O)[O-])c(OC2CCCCC2O)c([N+](=O)[O-])c1` (stereo not drawn), for which the inhibition was inactive: -0.07%.

Take `Cc1c([N+](=O)[O-])cc([N+](=O)[O-])c(Br)c1[N+](=O)[O-]`: the inhibition was inactive: -0.12%.

As for `CCN(CC)CCCOC(=O)C(O)(c1ccccc1)C1CCCCC1` (stereo not drawn), the inhibition was inactive: 0.15%.

As to `CCOC(=O)c1ccc(NP(C)(=O)Oc2ccc(F)cc2)cc1` (stereo not drawn), the inhibition was inactive: -0.39%.

Turning to `COc1ccc(OP(C)(=O)Nc2ccc(SC(F)(F)F)cc2)cc1` (stereo not drawn), the inhibition is inactive: -1.97%.

With `CCN(CC)CCCNc1ccccc1[N+](=O)[O-].O=[N+]([O-])c1cc([N+](=O)[O-])c(O)c([N+](=O)[O-])c1`, the inhibition is inactive: -1.06%.

`COc1ccc2c(c1O)-c1c(O)c(OC)cc3c1[C@H](C2)[N+](C)(C)CC3.O=[N+]([O-])c1cc([N+](=O)[O-])c([O-])c([N+](=O)[O-])c1[O-]`: the inhibition was inactive: -5.92%.

In the case of `O=C(OC1CN2CCC1CC2)c1ccc([N+](=O)[O-])cc1` (stereo not drawn), the inhibition is inactive: -0.47%.

With `O=C(OCCN1CCN(CCOCc2ccccc2)CC1)C(O)(c1ccccc1)c1ccccc1`, the inhibition is inactive: 0.62%.

Take `CP(=O)(Nc1ccccc1F)Oc1ccccc1` (stereo not drawn): the inhibition was inactive: 0.97%.

For `CC(C)c1ccc(OP(C)(=O)Nc2ccc(SC(F)(F)F)cc2)cc1` (stereo not drawn), the inhibition is inactive: -1.27%.

Take `O=[N+]([O-])c1cc([N+](=O)[O-])c(Nc2ccc(Cl)cc2)c([N+](=O)[O-])c1`: the inhibition is inactive: 1.28%.

On to `COc1ccccc1OP(C)(=O)Nc1ccc(C)cc1C` (stereo not drawn), for which the inhibition was inactive: -0.02%.

For `CP(=O)(Nc1ccccn1)Oc1ccccc1` (stereo not drawn), the inhibition was inactive: -1.87%.

In the case of `CCc1ccc(OP(C)(=O)O)cc1`, the inhibition is inactive: -1.55%.

For the compound `O=[N+]([O-])c1cc([N+](=O)[O-])c(Nc2ccccn2)c([N+](=O)[O-])c1`, the inhibition was inactive: -2.27%.

For the compound `Cc1c(NP(C)(=O)Oc2ccc(C(C)C)cc2)c(=O)n(-c2ccccc2)n1C` (stereo not drawn), the inhibition is inactive: -0.58%.

`COc1ccc(OP(C)(=O)Nc2ccccn2)cc1` (stereo not drawn): the inhibition is inactive: 1.29%.

With `CN(C)CCOC(=O)C(O)(c1ccccc1)C1CCCC1` (stereo not drawn), the inhibition is inactive: 0.39%.

`COc1ccccc1OP(C)(=O)Nc1ccc(Br)cc1` (stereo not drawn): the inhibition is inactive: 0.78%.

`CP(=O)(OCCOc1ccccc1)OCCOc1ccccc1`: the inhibition is inactive: -0.62%.

Regarding `CCCCCCCCCCCCCCCC1C[N+](C)(C)CCOP(C)(=O)O1` (stereo not drawn), the inhibition is inactive: 1.48%.

`CP(=O)(Nc1ccc(Cl)cc1Cl)Oc1ccccc1` (stereo not drawn): the inhibition is inactive: 0.52%.

For `COc1ccccc1OP(C)(=O)Nc1ccc(C)c(C)c1` (stereo not drawn), the inhibition was inactive: 0.78%.

For the compound `COc1ccc(OP(C)(=O)Nc2ccccc2Br)cc1` (stereo not drawn), the inhibition is inactive: -1.05%.

Regarding `Cc1cc(C)cc(OP(C)(=O)Nc2cccc(C(F)(F)F)c2)c1` (stereo not drawn), the inhibition is inactive: -0.27%.

On to `O=C1C(O)=C([N+](=O)[O-])C(=O)C(O)=C1[N+](=O)[O-]`, for which the inhibition was inactive: -2.31%.

On to `CCOC(=O)c1ccc(NP(C)(=O)Oc2ccc(Cl)cc2)cc1` (stereo not drawn), for which the inhibition was inactive: -2.48%.

With `CP(=O)(OC12CC3CC(CC(C3)C1)C2)OC12CC3CC(CC(C3)C1)C2`, the inhibition is inactive: 0.57%.

`Nc1ccc2c(ccc3cccnc32)n1.O=[N+]([O-])c1cc([N+](=O)[O-])c(O)c([N+](=O)[O-])c1`: the inhibition is inactive: -1.37%.

Regarding `CN(C)C(=O)c1c([N+](=O)[O-])cc([N+](=O)[O-])cc1[N+](=O)[O-]`, the inhibition is inactive: 0.07%.

`CC(C)(C)c1ccc(OP(C)(=O)O)cc1`: the inhibition is inactive: -2.77%.

Turning to `COc1ccccc1OP(C)(=O)Nc1ccccc1Br` (stereo not drawn), the inhibition is inactive: -0.41%.

As to `CP(=O)(Nc1ccc(Cl)cc1)Oc1ccc(F)cc1` (stereo not drawn), the inhibition was inactive: 1.32%.

As for `O=C(OCCCN1CCCC1)C(O)(c1ccccc1)C1CCCCC1` (stereo not drawn), the inhibition is inactive: -0.22%.

Consider `COc1ccccc1OP(C)(=O)Nc1c(C)n(C)n(-c2ccccc2)c1=O` (stereo not drawn), for which the inhibition is inactive: -0.18%.

Regarding `CCc1ccc(OP(C)(=O)Nc2cccnc2)cc1` (stereo not drawn), the inhibition is inactive: -0.77%.

On to `CP(=O)(Oc1ccccc1)N1CCOC1=O` (stereo not drawn), for which the inhibition was inactive: -0.3%.

Consider `COc1ccc(OP(C)(=O)Nc2ccc(Br)cc2)cc1` (stereo not drawn), for which the inhibition is inactive: -0.99%.

Take `CCN(CC)CC(O)COC(=O)C(O)(c1ccccc1)C1CCCCC1` (stereo not drawn): the inhibition was inactive: 3.6%.
